Measured values from several laboratories, pooled; numbers as filed in NIAID ChemDB.

Common to all: cytotoxicity tests; read-out: CC50

CCn: concentration that lowers growth or viability of the cells by n%. Blank or dashed fields: not listed here. Conditions beyond the fields shown may differ between rows.

structure	cells	read by	result
O=C(NCCc1ccc2c(n1)NCCC2)Nc1cccc(OC(F)F)c1	PBMC	-	50 µM
COc1ccc(CCNC(=O)CCCCC(C)=O)cc1OC	HepG2	-	>20 µM
CC(=O)c1cccc(-c2cccc(-c3cc(=O)n(O)c4ncccc34)c2)c1	HeLa	-	<100 µM
CC(C)N(Cc1cccc(OCCCCCC(=O)OC(=O)O)c1)C(=O)c1ccccc1	HepG2	-	>20 µM
COc1cccc(OCCCCCOc2cccc(NC(N)=S)c2)c1	Ava5-EG(delta4AB)SEAP	MTS	>1 µM
CC[C@@H](CCC[C@@H](CO)N(CCC(C)C)S(=O)(=O)c1ccc(CO)cc1)NC(=O)[C@@H](NC(=O)OC)C(c1ccc(Cl)cc1)c1ccc(Cl)cc1	T lymphoid cells	microscopy	>10 µM
NCc1cccc(CNc2cc(=O)n(O)c3ncccc23)c1	HeLa	-	<100 µM
CC(C)N(Cc1cccc(OCCCCCC(=O)OC(=O)O)c1)C(=O)c1ccc(-c2cccc(Br)c2)cc1	RAJI	-	>20 µM
COC(=O)N[C@H](C(=O)N[C@H](CCC[C@@H](CO)N(C(C)C)S(=O)(=O)c1ccc(CO)cc1)C1CC1)C(c1ccccc1)c1ccccc1	T lymphoid cells	microscopy	>10 µM
CCCNC(=S)Nc1cccc(OCCCCCc2ccccc2)c1	Ava5-EG(delta4AB)SEAP	MTS	>1 µM
COc1ccc(C)cc1OCCBr	RAJI	-	>20 µM
COC(=O)N[C@H](C(=O)N[C@H](CCC[C@@H](CO)N(CC(C)C)S(=O)(=O)c1ccc(CO)cc1)C1CC1)C(c1ccc(F)cc1)c1ccc(F)cc1	T lymphoid cells	microscopy	>10 µM
NC(=S)Nc1cccc(OCCCCCOc2ccc(-c3ccccc3)cc2)c1	Ava5-EG(delta4AB)SEAP	MTS	>1 µM
O=C(NCCc1ccc2c(n1)NCCC2)NCCc1ccc(Cl)cc1Cl	PBMC	-	9 µM
COC(=O)N[C@@H](Cc1ccccc1Cl)C(=O)N[C@@H](C)CCC[C@@H](CO)N(CC(C)C)S(=O)(=O)c1ccc(CO)cc1	T lymphoid cells	microscopy	>10 µM
COC(=O)c1cc(-c2cccs2)nc2ccccc12	RAJI	-	>20 µM
NC(=S)Nc1cccc(OCCCCCOc2ccnc3ccccc23)c1	Ava5-EG(delta4AB)SEAP	MTS	>1 µM
O=C(NCCCc1cnc2c(c1)CCCN2)Nc1ccc(Cl)c(Cl)c1	PBMC	-	7 µM
CCCN(Cc1cccc(OCCCCCC(=O)O)c1)C(=O)c1ccc(-c2ccc3c(c2)OCO3)cc1	RAJI	-	>20 µM
COc1ccc(OCCCCCOc2cccc(NC(N)=S)c2)c2ccccc12	Ava5-EG(delta4AB)SEAP	MTS	>1 µM
O=c1c(-c2ccccc2)c(O)c2cc(Br)cnc2n1O	HeLa	-	<100 µM
CCC[C@@H](CCC[C@@H](CO)N(CCCF)S(=O)(=O)c1ccc(N)cc1)NC(=O)[C@@H](NC(=O)OC)C(c1ccccc1)c1ccccc1	T lymphoid cells	microscopy	>10 µM
O=C(NCC1CCc2ccccc2N1)Nc1ccc(C(F)(F)F)cc1	PBMC	-	50 µM
COC(=O)N[C@@H](Cc1ccccc1Cl)C(=O)N[C@H](CCC[C@@H](CO)N(CCC(C)C)S(=O)(=O)c1ccc(CO)cc1)C1CC1	T lymphoid cells	microscopy	>10 µM
O=C(NCCc1ccc2c(n1)NCCC2)Nc1ccsc1	PBMC	-	50 µM
NC(=S)Nc1ccc2c(c1)Cc1cc(N)ccc1-2	Ava5-EG(delta4AB)SEAP	MTS	>1 µM
O=C(NCCc1cccc(-n2cccn2)n1)Nc1cccc(F)c1	PBMC	-	30 µM
NC(=S)Nc1cccc(OCCCCOc2ccc(-c3ccccc3)cc2)c1	Ava5-EG(delta4AB)SEAP	MTS	>1 µM
CC(CN1CCc2ccccc2C1)NC(=O)Nc1ccc(Cl)c(Cl)c1	PBMC	-	25 µM
O=c1cc(O)c2c(-c3cccc(O)c3)ccnc2n1O	HeLa	-	<100 µM
Cc1cccc(NC(=O)NCCc2ccc3c(n2)NCCC3)n1	PBMC	-	7.4 µM
CCOC(=O)CCCCCOc1cccc(CN(C(=O)c2ccc(-c3cc(F)cc(OC)c3)cc2)C(C)C)c1	HEK 293	-	>20 µM
O=C(NCCc1cccc(-n2cnc3ccccc32)n1)Nc1cccc(F)c1	PBMC	-	50 µM
CN(C(=O)c1c(O)c2cccnc2n(O)c1=O)[C@@H]1CCNC1	HeLa	-	<100 µM
CCCN([C@H](CO)CCC[C@H](C)NC(=O)[C@@H](NC(=O)OC)C(c1cccc(F)c1)c1cccc(F)c1)S(=O)(=O)c1ccc(N)cc1	T lymphoid cells	microscopy	>10 µM

For reference, 5 entries again:

structure	cells	read by	result
CC(C)N(Cc1cccc(OCCCCCC(=O)OC(=O)O)c1)C(=O)c1ccccc1	HepG2	-	>20 µM
CCCN(Cc1cccc(OCCCCCC(=O)O)c1)C(=O)c1ccc(-c2ccc3c(c2)OCO3)cc1	RAJI	-	>20 µM
CCOC(=O)CCCCCOc1cccc(CN(C(=O)c2ccc(-c3cc(F)cc(OC)c3)cc2)C(C)C)c1	HEK 293	-	>20 µM
O=C(NCCc1ccc2c(n1)NCCC2)NCCc1ccc(Cl)cc1Cl	PBMC	-	9 µM
O=C(NCC1CCc2ccccc2N1)Nc1ccc(C(F)(F)F)cc1	PBMC	-	50 µM